From patent publication US20230183310A1 (Shenzhen Turier Biotech Co., Ltd., priority 2020, published 2023)

Experiment: general procedure: Fmoc solid-phase peptide synthesis; Rink amide resin; benzotriazole-N,N,N',N'-tetramethyluronium hexafluorophosphate, 1-hydroxybenzotr
Details: whole synthesis, scale of the general procedure 0.25 mol

For “His-Aib-Gln-Gly-Thr-Phe-Thr-Ser-Asp-Lys(PEG2-PEG2-γGlu-CO(CH2)18CO2H)-Ser-Lys-Tyr-Leu-Glu-Aib-Lys-Ala-Ala-Gln-Asp-Phe-Val-Glu-Trp-Leu-Lys-Ala-Gly-Gly-Pro-Ser-Ser-Gly-Ala-Pro-Pro-Pro-Ser-NH2”, which “final HPLC purity” value is on record?
The value was greater than 95%.
